Assay results from patent US4957926A, “Method of treating herpesviruses” (priority 1988, dated 1990).

Tested on: Cytomegalovirus (Viral Strain Towne)
Assay: Cytomegalovirus Plaque Reduction Assay
Format: cell-based
Details: CMV; data of FIG. 1, % virus control vs log10 drug (mM)
Text: For testing the N-Bu-DNJ against HSV, the HSV Type II strain HG52 described by Timbury, J. Gen. Virol. 13, 373-376 (1971), and Davis et al., Analyst 110, 605-609 (1985), is useful. For testing against CMV, the prototype CMV ADl69 strain described, for example, by Tyms et al., J. Gen. Virol. 68, 1563-1573 (1987), and in U.S. Pat. No. 4,743,560, is useful. Another useful CMV strain is the Towne strain described by Glazer et al., Ann. Inter. Med. 91, 676-683 (1979).
Human embryo fibroblast cells (HEF) were grown in Eagles minimal essential medium supplemented with 7% fetal calf serum (FCS), 9 mM sodium bicarbonate and 7 mM HEPES buffer. In maintenance medium the supplements were adjusted to 2% FCS, 13 mM sodium bicarbonate and 14 mM HEPES. CMV, strain Towne, and HSV type II, strain […], were used in the following tests. CMV virus stocks were prepared and stored by technique as previously described by Tyms & Williamson, Nature 297, 690-691 […]. Herpes virus stocks were prepared and stored by technique as previously described by Davis et al., Analyst 110, 605-609 (1985). The HEF were human embryonic lung fibroblasts, strain MRC-5, as described by Tyms and Williamson, Nature 297, 690-691 (1982).
For plaque reduction assays, 24-well culture trays were seeded with HEF cells. Confluent monolayers were infected with virus to give initially about 100 plaque-forming-units (p.f.u.) per well. After a one hour absorption period the inocula were replaced by l.5ml of a maintenance medium incorporating 0.5% low gelling temperature agarose, supplemented with various concentrations of test compound. For tests with CMV, infected monolayers were fixed with 5% formalin in phosphate buffered saline (PBS) at 6-8 days post-infection and stained with 0.3% methylene blue after removal of the overlay; whereas, tests with HSV were conducted in the same manner but with the monolayer fixing at 2 days post infection. The mean plaque number was calculated from a multiple series of counts (e.g., duplicate, triplicate or quadruplicate), converted to a percentage of untreated controls and values plotted against the log10 drug concentration. The 50% effective dose (ED50) was determined from best line fits for the curves.
In a similar manner, the Effective Dosage Values (ED50) were determined from the curves of FIG. 1. A least squares fit of the data of FIG. 1 to an equation of the form: y=mx+b gave the following values: […]
From these values, a 50% effective dose (ED50) was calculated to give the following values: […]

SMILES	b (least squares fit y=mx+b)	m (least squares fit y=mx+b)
CCCCN1C[C@H](O)[C@@H](O)[C@H](O)[C@H]1CO [N-Bu-DNJ, Nbutyl deoxynojirimycin]	31.7	-75.95
O[C@H]1[C@H](O)[C@@H](O)CN2CC[C@H](O)[C@H]12 [Castanospermine, castanospermine, reference compound]	32.9	-77.08
